Measurements reported in PubChem BioAssay AID624099 (ICCB-Longwood, 2012).

Purpose: 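Knock-downs relieving repression by E2 of an HPV18 LCR luciferase reporter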 (primary screen)
Cells: human C33A cervical carcinoma cells (HPV-negative) stably expressing BPV1 E2 and an HPV18 LCR luciferase reporter
Reagent: siRNA pool against human genes, 40 nM
Duration: 72 h
Read-out: 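HPV18 LCR reporter light per well, converted to plate-wise z-scores that exclude control wells, and averaged over triplicate plates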
Reading the numbers: mean z-score and z-score: higher = stronger reporter signal, weaker E2 silencing
Call rule: 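Hit if mean z-score reaches 2 and two or more of three replicate z-scores also reach 2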
The deposit covers about 21,000 reagents; shown is a random part of them. Of all reagents, 497 (2.4%) are marked active. 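Higher z means weaker E2 silencing; only reporter increases were scored, and knock-downs that hurt cell survival may mask genuine repressor factors.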 A number with no mark means an inactive call.

BNIPL (BCL2 interacting protein like)
- mean z-score: -0.09
- z-score, replicate A: 0.05
- z-score, replicate B: -0.14
- z-score, replicate C: -0.19

ELAPOR2
- mean z-score: -1
- z-score, replicate A: -1.01
- z-score, replicate B: -1
- z-score, replicate C: -0.98

CFAP206 (cilia and flagella associated protein 206)
- mean z-score: -0.44
- z-score, replicate A: 0.13
- z-score, replicate B: -0.64
- z-score, replicate C: -0.83

VASH1 (vasohibin 1)
- mean z-score: 0.41
- z-score, replicate A: 0.36
- z-score, replicate B: 0.18
- z-score, replicate C: 0.69

PVALEF (parvalbumin like EF-hand containing)
- mean z-score: 0.15
- z-score, replicate A: 0.06
- z-score, replicate B: 0.16
- z-score, replicate C: 0.23

PHF21B (PHD finger protein 21B)
- mean z-score: 0.6
- z-score, replicate A: 0.75
- z-score, replicate B: 0.53
- z-score, replicate C: 0.5

PAPLN (papilin, proteoglycan like sulfated glycoprotein)
- mean z-score: 0.87
- z-score, replicate A: 1
- z-score, replicate B: 0.33
- z-score, replicate C: 1.29

CCDC97 (coiled-coil domain containing 97)
- mean z-score: 1.3
- z-score, replicate A: 0.41
- z-score, replicate B: 1.31
- z-score, replicate C: 2.17

B4GALT7 (beta-1,4-galactosyltransferase 7)
- mean z-score: -0.88
- z-score, replicate A: -0.68
- z-score, replicate B: -0.87
- z-score, replicate C: -1.08

C16orf78 (chromosome 16 open reading frame 78)
- mean z-score: -0.48
- z-score, replicate A: 0.06
- z-score, replicate B: -0.65
- z-score, replicate C: -0.84

GTF2H1 (general transcription factor IIH subunit 1)
- mean z-score: -0.26
- z-score, replicate A: -0.02
- z-score, replicate B: -0.43
- z-score, replicate C: -0.35

BTBD7 (BTB domain containing 7)
- mean z-score: 1.1
- z-score, replicate A: 1.04
- z-score, replicate B: 1.17
- z-score, replicate C: 1.09

Targets above whose target name starts with B or b (3):
BNIPL (BCL2 interacting protein like)
- mean z-score: -0.09
- z-score, replicate A: 0.05
- z-score, replicate B: -0.14
- z-score, replicate C: -0.19

B4GALT7 (beta-1,4-galactosyltransferase 7)
- mean z-score: -0.88
- z-score, replicate A: -0.68
- z-score, replicate B: -0.87
- z-score, replicate C: -1.08

BTBD7 (BTB domain containing 7)
- mean z-score: 1.1
- z-score, replicate A: 1.04
- z-score, replicate B: 1.17
- z-score, replicate C: 1.09
